According to the NIST ThermoML archive (doi:10.1021/je8003707):

Assay: xn = mol fraction of the nth substance listed
Conditions: 101 kPa, Liquid; for viscosity: Capillary tube (Ostwald / Ubbelohde) method; for mass density: Pycnometric method

CCCCOP(=O)(OCCCC)OCCCC [tributyl phosphate] + C1CCCCC1
Conditions	mass density, 288.15 K [kg/m3]	mass density, 293.15 K [kg/m3]	mass density, 298.15 K [kg/m3]	mass density, 303.15 K [kg/m3]	mass density, 308.15 K [kg/m3]	viscosity, 288.15 K [mPa·s]	viscosity, 293.15 K [mPa·s]	viscosity, 298.15 K [mPa·s]	viscosity, 303.15 K [mPa·s]	viscosity, 308.15 K [mPa·s]
x1 = 0.1002	823.6 ± 0.4	819.1 ± 0.3	814.4 ± 0.3	809.8 ± 0.4	805.2 ± 0.4	1.286 ± 0.013	1.172 ± 0.012	1.072 ± 0.011	0.989 ± 0.011	0.904 ± 0.01
x1 = 0.2037	857.3 ± 0.3	852.7 ± 0.3	848.2 ± 0.3	843.6 ± 0.4	839.1 ± 0.4	1.562 ± 0.015	1.424 ± 0.014	1.298 ± 0.013	1.183 ± 0.012	1.085 ± 0.011
x1 = 0.3001	882.3 ± 0.3	877.9 ± 0.3	873.4 ± 0.3	868.9 ± 0.3	864.6 ± 0.4	1.851 ± 0.017	1.676 ± 0.015	1.52 ± 0.014	1.389 ± 0.013	1.275 ± 0.012
x1 = 0.4106	905.7 ± 0.3	901.2 ± 0.3	896.9 ± 0.3	892.5 ± 0.3	888 ± 0.3	2.224 ± 0.019	1.998 ± 0.017	1.808 ± 0.015	1.641 ± 0.014	1.496 ± 0.013
x1 = 0.4982	922 ± 0.3	917.6 ± 0.3	913.3 ± 0.3	908.7 ± 0.3	904.5 ± 0.3	2.535 ± 0.02	2.266 ± 0.019	2.034 ± 0.017	1.84 ± 0.015	1.666 ± 0.014
x1 = 0.5928	936.5 ± 0.3	932.2 ± 0.3	927.8 ± 0.3	923.4 ± 0.3	919.1 ± 0.3	2.857 ± 0.023	2.542 ± 0.02	2.274 ± 0.018	2.044 ± 0.016	1.848 ± 0.015
x1 = 0.7056	951.1 ± 0.3	946.7 ± 0.3	942.4 ± 0.3	938.1 ± 0.3	934 ± 0.3	3.253 ± 0.025	2.873 ± 0.023	2.566 ± 0.02	2.302 ± 0.018	2.069 ± 0.016
x1 = 0.7898	960.8 ± 0.3	956.3 ± 0.3	952 ± 0.3	947.7 ± 0.3	943.5 ± 0.3	3.555 ± 0.027	3.14 ± 0.024	2.795 ± 0.021	2.496 ± 0.019	2.24 ± 0.017
x1 = 0.9063	972.8 ± 0.3	968.6 ± 0.3	964.3 ± 0.3	959.9 ± 0.3	955.8 ± 0.3	3.962 ± 0.03	3.5 ± 0.027	3.098 ± 0.024	2.755 ± 0.021	2.462 ± 0.019
x1 = 1	–	–	–	–	–	4.304 ± 0.032	3.77 ± 0.028	3.341 ± 0.025	2.969 ± 0.022	2.651 ± 0.02

CCCCOP(=O)(OCCCC)OCCCC [tributyl phosphate] + CCCCCCC
Conditions	mass density, 288.15 K [kg/m3]	mass density, 293.15 K [kg/m3]	mass density, 298.15 K [kg/m3]	mass density, 303.15 K [kg/m3]	mass density, 308.15 K [kg/m3]	viscosity, 288.15 K [mPa·s]	viscosity, 293.15 K [mPa·s]	viscosity, 298.15 K [mPa·s]	viscosity, 303.15 K [mPa·s]	viscosity, 308.15 K [mPa·s]
x1 = 0.1028	739.5 ± 0.3	735.2 ± 0.3	731.2 ± 0.3	726.8 ± 0.3	722.5 ± 0.3	0.584 ± 0.008	0.549 ± 0.007	0.52 ± 0.007	0.489 ± 0.007	0.461 ± 0.007
x1 = 0.1954	779.5 ± 0.3	775 ± 0.3	770.7 ± 0.3	766.5 ± 0.3	761.9 ± 0.3	0.753 ± 0.008	0.704 ± 0.008	0.659 ± 0.008	0.619 ± 0.008	0.582 ± 0.008
x1 = 0.2961	817 ± 0.3	812.5 ± 0.3	808.2 ± 0.3	803.8 ± 0.3	799.5 ± 0.3	0.984 ± 0.01	0.913 ± 0.009	0.847 ± 0.009	0.789 ± 0.008	0.737 ± 0.008
x1 = 0.3975	849.9 ± 0.3	845.4 ± 0.3	840.9 ± 0.3	836.7 ± 0.3	832.2 ± 0.3	1.267 ± 0.011	1.164 ± 0.01	1.072 ± 0.01	0.993 ± 0.009	0.922 ± 0.009
x1 = 0.4951	877.6 ± 0.3	873.2 ± 0.3	868.7 ± 0.3	864.3 ± 0.3	860.1 ± 0.3	1.59 ± 0.013	1.444 ± 0.012	1.321 ± 0.011	1.214 ± 0.01	1.121 ± 0.01
x1 = 0.6079	905.7 ± 0.3	901.4 ± 0.3	897 ± 0.3	892.7 ± 0.3	888.5 ± 0.3	2.024 ± 0.016	1.829 ± 0.014	1.658 ± 0.013	1.512 ± 0.012	1.377 ± 0.011
x1 = 0.7045	927.2 ± 0.3	922.9 ± 0.3	918.5 ± 0.3	914.2 ± 0.3	910 ± 0.3	2.466 ± 0.019	2.211 ± 0.017	1.999 ± 0.015	1.808 ± 0.014	1.634 ± 0.013
x1 = 0.796	945.5 ± 0.3	941.1 ± 0.3	936.7 ± 0.3	932.5 ± 0.3	928.2 ± 0.3	2.953 ± 0.022	2.631 ± 0.019	2.355 ± 0.017	2.119 ± 0.016	1.911 ± 0.014
x1 = 0.8995	964.3 ± 0.3	959.9 ± 0.3	955.7 ± 0.3	951.4 ± 0.3	947.3 ± 0.3	3.618 ± 0.027	3.189 ± 0.024	2.833 ± 0.021	2.535 ± 0.018	2.269 ± 0.017
x1 = 1	981 ± 0.3	–	972.5 ± 0.3	–	–	–	–	–	–	–

± gives the expanded uncertainty stated by the source.
